PubChem BioAssay AID1259414 | Drosophila RNAi Screening Center | 2018

- Screen: 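Host factors increasing or decreasing Wolbachia levels in cultured fly cells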 (primary screen)
- System: Drosophila JW18 cells infected with Wolbachia
- Knock-down reagent: long dsRNA against Drosophila genes, 0.25 µg dsRNA per well of a 384-well plate
- Time to read-out: 5 days
- Conditions: cells persistently infected with Wolbachia before knock-down; no added drug
- Measurement: 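Automated imaging of bacterial rRNA staining divided by host cell count, reported as plate-normalised robust z-score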
- Reading the numbers: Wolbachia per cell robust z: higher = more Wolbachia per host cell than the plate typical
- Active means: 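Hit when robust z is 1.5 or more, or -1.5 or less, in at least two of three replicates; excludes dsRNAs with several or no targets, genes not expressed in JW18 and well A1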
The deposit covers about 24,000 reagents; shown is a random part of those that have a named target and a result. Over the whole deposit, about 1,210 (5%) got an active call. 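Inactive calls also include excluded dsRNAs with several or no targets, genes unexpressed in JW18, and well A1, regardless of score.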 A number with no mark means an inactive call. A plus sign joins genes that one reagent is predicted to hit.

With knock-down of rno (rhinoceros) [DRSC08584] the results were Wolbachia per cell robust z, rep 1 = -1.66 (active); Wolbachia per cell robust z, rep 2 = -1.54; Wolbachia per cell robust z, rep 3 = -0.98.
Silencing of CG17776 [DRSC18136] came out at: Wolbachia per cell robust z, rep 1 = -1.74 (active); Wolbachia per cell robust z, rep 2 = -1.8; Wolbachia per cell robust z, rep 3 = 0.791.
After knock-down of CG17776 [DRSC27477], the screen gave Wolbachia per cell robust z, rep 1 = 1.03; Wolbachia per cell robust z, rep 2 = -1.21; Wolbachia per cell robust z, rep 3 = -0.995.
Knock-down of NLaz (Neural Lazarillo) [DRSC21521] came out at: Wolbachia per cell robust z, rep 1 = -1.05; Wolbachia per cell robust z, rep 2 = 0.877; Wolbachia per cell robust z, rep 3 = -0.74.
Depletion of Gpo3 (Glycerophosphate oxidase 3) [DRSC01978] resulted in: Wolbachia per cell robust z, rep 1 = -0.995; Wolbachia per cell robust z, rep 2 = -0.402; Wolbachia per cell robust z, rep 3 = -0.649.

Just “Wolbachia per cell robust z, rep 3” (2 entries from above):
CG17776 [DRSC18136] = 0.791 (active)
CG17776 [DRSC27477] = -0.995

The list goes on:
Knock-down of cact (cactus) [DRSC03501] gave: Wolbachia per cell robust z, rep 1 = -0.139; Wolbachia per cell robust z, rep 2 = 1.02; Wolbachia per cell robust z, rep 3 = -0.827.
cact (cactus) [DRSC28422] gave Wolbachia per cell robust z, rep 1 = -0.564; Wolbachia per cell robust z, rep 2 = -0.457; Wolbachia per cell robust z, rep 3 = 0.14.
Silencing of CheB53b (Chemosensory protein B 53b) [DRSC05613] came out at: Wolbachia per cell robust z, rep 1 = -0.205; Wolbachia per cell robust z, rep 2 = 0.525; Wolbachia per cell robust z, rep 3 = 0.301.
CheB53b (Chemosensory protein B 53b) [DRSC28557] scored Wolbachia per cell robust z, rep 1 = 0.235; Wolbachia per cell robust z, rep 2 = 0.79; Wolbachia per cell robust z, rep 3 = 0.86.
Grx1t (Glutaredoxin 1, testis-specific) [DRSC04530] gave Wolbachia per cell robust z, rep 1 = -1.63; Wolbachia per cell robust z, rep 2 = -1.21; Wolbachia per cell robust z, rep 3 = -0.321.
Against Grx1t (Glutaredoxin 1, testis-specific) [DRSC28633], the values are Wolbachia per cell robust z, rep 1 = 0.585; Wolbachia per cell robust z, rep 2 = -0.053; Wolbachia per cell robust z, rep 3 = 0.83.
For CG40470 [DRSC37732], the values are Wolbachia per cell robust z, rep 1 = 0.689; Wolbachia per cell robust z, rep 2 = 1.28; Wolbachia per cell robust z, rep 3 = 0.492.
Knock-down of sala + CG43355 [DRSC03605] came out at: Wolbachia per cell robust z, rep 1 = 0.172; Wolbachia per cell robust z, rep 2 = -0.432; Wolbachia per cell robust z, rep 3 = -6.6.
With knock-down of sala + CG43355 [DRSC28864] the results were Wolbachia per cell robust z, rep 1 = 0.333; Wolbachia per cell robust z, rep 2 = 0.707; Wolbachia per cell robust z, rep 3 = 0.404.
lolal (lola like) [DRSC06948] scored Wolbachia per cell robust z, rep 1 = 0.111; Wolbachia per cell robust z, rep 2 = 0.264; Wolbachia per cell robust z, rep 3 = 0.23.
Qsox2 (Quiescin sulfhydryl oxidase 2) [DRSC15287] gave Wolbachia per cell robust z, rep 1 = -0.0301; Wolbachia per cell robust z, rep 2 = 0.612; Wolbachia per cell robust z, rep 3 = 1.65.
Depletion of Qsox2 (Quiescin sulfhydryl oxidase 2) [DRSC26634] resulted in: Wolbachia per cell robust z, rep 1 = -0.628; Wolbachia per cell robust z, rep 2 = 1.53; Wolbachia per cell robust z, rep 3 = 1.14.
